These results are taken from PubChem BioAssay AID1822 (The Scripps Research Institute Molecular Screening Center, 2009).

Each structure is given as a SMILES string. This is a selection; strong and weak results do not stand in their true shares. Active and inactive are the calls of the source.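 The calls were made as follows: active = inhibition above the campaign mean inhibition over all tested compounds plus 3 SD (cut at about 28% in these data); inactive = the rest.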

For orientation: inhibition means the drop in the measured response relative to a control, in per cent.

The test system of this assay is M18 aspartyl aminopeptidase (Plasmodium falciparum 3D7). The assay is described as follows: inhibition of P. falciparum M18 aminopeptidase – biochemical, QFRET, recombinant enzyme, primary screen (AID 1822).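 Also: 0% = plate median of test compound wells and 100% = 2 mM ZnCl2.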 The following applies: recombinant PfM18AAP, H-Glu-NHMec fluorogenic cleavage; at 7.35 µM; stronger effect = higher value.
With `CP(=O)(Nc1ccc(Cl)cc1Cl)Oc1ccccc1` (stereo unspecified), the inhibition is inactive: 5.06%.
